In patent US8221762B2, “Naturally processed measles virus peptides from class II HLA molecules” (priority 2004, dated 2012):

Tested on: PBMC of subjects previously immunized with MMR-II vaccine
Assay: T cell proliferation assay ([3H]-thymidine, 4 days, SI>2 positive), Example 3
Settings: among 107 subjects who responded to measles

Compound	sensitivity (measles responders who also responded to the peptide) [%]
CC[C@H](C)[C@H](NC(=O)[C@H](CCC(=O)O)NC(=O)CNC(=O)CNC(=O)[C@H](CCC(=O)O)NC(=O)[C@H](C)NC(=O)[C@@H](NC(=O)[C@H](CCC(=O)O)NC(=O)[C@@H](NC(=O)[C@H](CC(=O)O)NC(=O)[C@H](CO)NC(=O)[C@H](C)N)C(C)C)[C@@H](C)O)C(=O)N[C@@H](Cc1c[nH]cn1)C(=O)N[C@@H](CCC(=O)O)C(=O)N[C@@H](CC(C)C)C(=O)N[C@@H](CC(C)C)C(=O)N[C@@H](CCCNC(=N)N)C(=O)N[C@@H](CC(C)C)C(=O)N[C@@H](CCC(N)=O)C(=O)O [MV-P1]	47
CC[C@H](C)[C@H](NC(=O)[C@H](CCC(=O)O)NC(=O)CNC(=O)CNC(=O)[C@H](CCC(=O)O)NC(=O)[C@H](C)NC(=O)[C@@H](NC(=O)[C@H](CCC(=O)O)NC(=O)[C@@H](NC(=O)[C@H](CC(=O)O)NC(=O)[C@H](CO)NC(=O)[C@H](C)N)C(C)C)[C@@H](C)O)C(=O)N[C@@H](Cc1c[nH]cn1)C(=O)N[C@@H](CCCCN)C(=O)N[C@@H](CC(C)C)C(=O)N[C@@H](CC(C)C)C(=O)N[C@@H](CCCNC(=N)N)C(=O)N[C@@H](CC(C)C)C(=O)N[C@@H](CCC(N)=O)C(=O)O [MV-P2]	20
